Mutational interference map of HIV-1 RNA dimerization

Source: Ye et al. 2022 (doi:10.1038/s41594-022-00746-2), supplementary data.

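Mutant RNA libraries with 1G, 2G or 3G starts, with or without cap, were folded at 37 °C for 30 min. Monomer and dimer bands were cut from native gels after folding in high salt (300 mM KCl, 5 mM MgCl2) or low salt (40 mM KCl, 0.1 mM MgCl2). Kdimer compares mutation frequencies in monomer and dimer, corrected for sequencing errors.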

RNA: 5' end of the HIV-1 NL4-3 genome, made in vitro. Positions 1-437 read:
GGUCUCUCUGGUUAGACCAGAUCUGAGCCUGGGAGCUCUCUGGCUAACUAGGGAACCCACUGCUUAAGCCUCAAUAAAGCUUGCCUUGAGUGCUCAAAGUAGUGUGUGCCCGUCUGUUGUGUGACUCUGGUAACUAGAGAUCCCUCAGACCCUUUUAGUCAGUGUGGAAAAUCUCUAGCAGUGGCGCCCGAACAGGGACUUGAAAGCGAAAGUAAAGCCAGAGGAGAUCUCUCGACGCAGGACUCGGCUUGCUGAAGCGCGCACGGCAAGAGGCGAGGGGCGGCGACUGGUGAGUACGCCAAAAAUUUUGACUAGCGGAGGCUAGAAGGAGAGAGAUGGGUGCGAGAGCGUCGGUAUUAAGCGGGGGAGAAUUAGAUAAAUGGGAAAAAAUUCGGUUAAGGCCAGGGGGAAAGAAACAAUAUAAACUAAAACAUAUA

Scale: median log2 Kdimer over the changes at a position; positive = changes inhibit dimerization, negative = changes enhance it.
Sample: 2G capped low-salt.
One numbering serves 1G, 2G and 3G.
A position is written with its base.

With C300 the assay gave -0.31.
With A301 the assay gave 0.40.
With A302 the assay gave -0.23.
With A303 the assay gave -0.02.
With A304 the assay gave 0.00.
With A305 the assay gave -0.05.
With U306 the assay gave 0.00.
With U307 the assay gave -0.11.
With U308 the assay gave -0.12.
With U309 the assay gave 0.23.
With G310 the assay gave -0.08.
With A311 the assay gave 0.81.
With C312 (domain SL3) the assay gave 0.26.
With U313 (domain SL3) the assay gave 1.26.
With A314 (domain SL3) the assay gave -0.26.
With G315 (domain SL3) the assay gave 0.55.
With C316 (domain SL3) the assay gave 0.57.
With G317 (domain SL3) the assay gave 0.27.
With G318 (domain SL3) the assay gave -0.05.
With A319 (domain SL3) the assay gave 0.06.
With G320 (domain SL3) the assay gave -0.41.
With G321 (domain SL3) the assay gave 1.22.
With C322 (domain SL3) the assay gave 0.70.
With U323 (domain SL3) the assay gave 0.63.
With A324 (domain SL3) the assay gave 0.86.
With G325 (domain SL3) the assay gave 0.61.
With A326 the assay gave -0.02.
With A327 the assay gave 0.19.
With G328 the assay gave -0.20.
With G329 the assay gave 0.04.
With A330 the assay gave 0.47.
With G331 the assay gave -0.19.
With A332 the assay gave 0.46.
With G333 (domain AUG) the assay gave -0.24.
With A334 (domain AUG) the assay gave 0.39.
With G335 (domain AUG) the assay gave 0.31.
With A336 (domain AUG) the assay gave 0.38.
With U337 (domain AUG) the assay gave 0.10.
With G338 (domain AUG) the assay gave 0.06.
With G339 (domain AUG) the assay gave 0.51.
With G340 (domain AUG) the assay gave 0.21.
With U341 (domain AUG) the assay gave 0.23.
With G342 (domain AUG) the assay gave -0.06.
With C343 (domain AUG) the assay gave 0.17.
With G344 (domain AUG) the assay gave -0.38.
With A345 the assay gave 0.19.
With G346 the assay gave 0.20.
With A347 the assay gave 0.23.
With G348 the assay gave -0.33.
With C349 the assay gave -0.06.
With G350 the assay gave 0.18.
With U351 the assay gave 0.09.

Extract of 7 entries:

position,domain,2G capped low-salt
G350,none,0.18
G344,AUG,-0.38
U307,none,-0.11
U308,none,-0.12
G331,none,-0.19
G340,AUG,0.21
C349,none,-0.06